Compound potency records, mixed from different reports. Data source: NIAID ChemDB in PubChem.

All rows: toxicity to cultured cells; cells: HepG2 2.2.15; measure: CC50

Neighbouring rows are from separate reports. CCn: concentration that lowers growth or viability of the cells by n%.

Cc1ccc(NCc2nnc(Sc3ccccc3)o2)cc1 ; result: >100 µM
COC1OC(Cn2ccc(=O)nc2SC)C(O)C1O ; result: >100 µM
C[C@H](NP(=O)(OC[C@@H]1C=C[C@H](n2ccc3c(N)ncnc32)C1)Oc1ccccc1)C(=O)OCc1ccccc1 ; result: 18 µM
CNc1ncnc2c1ncn2[C@H]1CC(F)[C@@H](CO)O1 ; result: >200 µM
O=c1c2ccccc2c(=O)n(-c2ccccc2)n1CC(O)CO ; result: >10 µM
CNc1ncnc2c1ncn2[C@H]1CC(F)[C@@H](COP(=O)(N[C@@H](C)C(=O)OC)Oc2ccccc2)O1 ; result: 58 µM
Cc1ccc(NCc2nnc(Nc3ccccc3)s2)cc1 ; result: >100 µM
COC(=O)C(C)(C)NP(=O)(OC[C@@H]1C=C[C@H](n2ccc3c(N)ncnc32)C1)Oc1ccccc1 ; result: 64 µM
Cc1ccc(NCc2nnc(SCC(=O)NN=CC(O)C(O)C(O)C(O)CO)n2-c2ccccc2)cc1 ; result: >100 µM
CCCc1cc(=O)nc(SC)n1CC1OC(OC)C(O)C1O ; result: >100 µM
COC(=O)[C@H](C)NP(=O)(OC[C@H]1C=C[C@@H](n2ccc3c(N)ncnc32)C1)Oc1ccccc1 ; result: 230 µM
CCc1c(Sc2cc(Cl)ccc2C)[nH]c(=O)[nH]c1=O ; result: >100 µM
CCCCCCCCCCCCC/C=C/C=C/C(CCCCCC)ON1C=CC=CN1O ; result: >50 µg/mL
O=C(CNc1ccc(F)cc1)NNC(=S)Nc1ccccc1 ; result: >100 µM
COC(=O)[C@H](C)NP(=O)(OC[C@H]1O[C@@H](n2cnc3c(N)ncnc32)CC1F)Oc1ccccc1 ; result: 7 µM
O=C(CSc1nnc(CNc2ccccc2)n1-c1ccccc1)NN=CC(O)C(O)C(O)C(O)CO ; result: >100 µM
O=c1cc(Sc2ccc(F)cc2)[nH]c(=O)[nH]1 ; result: >100 µM
S=c1nc(CNc2ccccc2)[nH][nH]1 ; result: >100 µM
C/C(=N\N=C(N)N)c1cc(NC(=O)CCCCCCCCC(=O)Nc2cc(/C(C)=N/N=C(N)N)cc(/C(C)=N/N=C(N)N)c2)cc(/C(C)=N/N=C(N)N)c1 ; result: >20 µM
CCOC(=O)CSc1nnc(CNc2ccc(F)cc2)n1-c1ccccc1 ; result: >100 µM
COC(=O)C(C)(C)NP(=O)(OC[C@H]1O[C@@H](n2cnc3c(N)ncnc32)CC1F)Oc1ccccc1 ; result: 3.2 µM
O=c1c(Cc2ccccc2)nc2ccccc2n1CC(O)CO ; result: >10 µM
COC(=O)[C@H](C)NP(=O)(OC[C@@H]1C=C[C@H](n2ccc3c(N)ncnc32)C1)Oc1ccccc1 ; result: 81 µM
COC1OC(Cn2cc(C)c(=O)nc2SC)C(O)C1O ; result: >100 µM
CCc1c(Sc2ccc(F)cc2)[nH]c(=O)[nH]c1=O ; result: >100 µM
CN(/C=C1\SC(=O)NC1=O)Cc1cccc2ccccc12 ; result: 46.78 µM
NNC(=O)CSc1nnc(CNc2ccccc2)n1-c1ccccc1 ; result: >100 µM
COC1OC(CSc2nc(C)cc(=O)[nH]2)C(O)C1O ; result: >100 µM
Nc1ncnc2c1ccn2[C@H]1C=C[C@@H](CO)C1 ; result: >200 µM